Results as given in article PMC8786148 (PLoS ONE, 2022).

Test: general procedure: Fmoc solid-phase peptide synthesis; NovaPEG Rink amide resin; HBTU/HOBt/DIPEA
Conditions: whole synthesis, LC-HRMS

Question: For H-GIGKFLHSAKKFGKAFVGEIMNS-NH2, which “final LC-MS purity” value is on record?
Answer: 98.0%

Question: With H-KLLKKAGKLLKKAGKLLKKAG-NH2 as the substance, how does the “final LC-MS purity” value read?
Answer: >99.9%

Question: Which “final LC-MS purity” value does the source give for H-GIGKFLHSZKKFGKZFV-NH2 here?
Answer: 96.9%

Question: Which “final LC-MS purity” value does the source give for H-GIGKFLHSUKKFGKUFV-NH2 here?
Answer: >99.9%

Question: Which “final LC-MS purity” value does the source give for H-TVIEVASKMCSKMRLLKGLCKSITKRFLRR-NH2 here?
Answer: 96.5%

Question: Which “final LC-MS purity” value does the source give for H-GIGKFLHSAKKFGKAFV-NH2 here?
Answer: 99.8%

Question: For H-KKKKKKKKKGGGLLALLALLA-NH2, which “final LC-MS purity” value is on record?
Answer: 98.0%

Question: With H-KKKLAKLKLGAKLKLKGKLGA-NH2 as the substance, how does the “final LC-MS purity” value read?
Answer: >99.9%

Question: With H-GIKKFLKSZKKFVKZFK-NH2 as the substance, how does the “final LC-MS purity” value read?
Answer: 96.9%
